Patent US8642317B2 (priority 2007, dated 2014)

Tested on: bacterial isolate 180507-1 (IDAC)
Test: Degradation of trichothecenes other than DON by the selected isolate

Row | Compound | degradation by the selected isolate (deepoxidation and/or deacylation)
1 | CC1=C[C@H]2O[C@@H]3C[C@@H](O)[C@](C)([C@@]2(CO)CC1)[C@]31CO1 | degraded
2 | T2 toxin | degraded
